From PMC9610346

Tests used:
[1] = target: gp145 SOSIP construct of the Env spike protein from the HIV-1 BG505 clade A strain, nanodisc-embedded trimer (HIV-1 strain BG505 (clade A)); experiment: negative-stain EM
[2] = target: gp145 SOSIP construct of the Env spike protein from the HIV-1 BG505 clade A strain, nanodisc-embedded trimer (HIV-1 strain BG505 (clade A)); experiment: cryo-EM structure

Fab fragment of broadly neutralizing antibody 4E10
stoichiometry N [1]: 1 and 3
percent of ectodomains bound by at least one Fab [2]: 20%

“And” between values parts separate entries of the source, which are not always exact repeats. Equal entries are not always repeated.
